Measurements published in paper PMC11988454, “Discovery of synthetic small molecules targeting the central regulator of Salmonella pathogenicity” (Science Advances, 2025).

Experiments:
SPI-encoded genes = assay type: cell-based, S. Typhimurium
Method: Salmonella was grown for 5 hours at 37°C in LB medium in the presence of 100 μM C26 or 1% (v/v) DMSO as a control. After growth, bacteria were harvested by centrifugation, and total RNA was isolated using the Qiagen RNeasy mini kit according to the manufacturer’s protocol. RNA-seq was performed on a HiSeq2500 with a 2 x 125–base pair paired-end read protocol. The Illumina Casava software was used to demultiplex the sequenced reads providing individual raw fastq sample files. Raw fastq files were prefiltered using the chastity filter to remove reads that contain a “Y” flag. FastQC (https://www.bioinformatics.babraham.ac.uk/projects/fastqc/, version v0.11.4) was used to determine the quality of the resulting fastq files. Subsequently, an adapter trimming/removal step was conducted with Cutadapt (https://pypi.python.org/pypi/cutadapt/, version 1.8.3). […] TopHat2 (https://ccb.jhu.edu/software/tophat/index.shtml, version v2.0.12) was used as aligner to map the remaining quality controlled reads to the Salmonella genome. Read counting to features (e.g., genes or exons) in the genome was performed with HTSeq-count (https://htseq.readthedocs.io/en/master/htseqcount.html, version 0.6.0.). Counting was performed using “union” mode on the feature “gene.” The stranded option was also set to “–stranded=no” to indicate to count features on both strands. Furthermore, the -r parameter from HTSeq was set to “pos” as this is the default of the output of TopHat’s “accepted_hits.bam” mapping file. For differential expression analysis, the raw read count table resulting from HTSeq counting is used and fed into the R package DESeq2 (version 1.10.1). Graphs were also produced in the R language (R version 3.2.1) mainly using the R package ggplot2 (version 2.2.0). Reports were produced using the R package rmarkdown (version 1.3).

S. Typhimurium = assay: Subcellular quantification of uptake; assay type: cell-based; settings: 100 ng/ml, 10 min
[1] = C26 100 μM, single biological replicates

Compound	Log10 (Number of reads) STM1329 (SPI-encoded genes; C26 100 μM (Fig 2D))	Log10 (Number of reads) STM4315 (SPI-encoded genes; C26 100 μM (Fig 2D))	Log10 (Number of reads) hilA (SPI-encoded genes; C26 100 μM (Fig 2D))	Log10 (Number of reads) invF (SPI-encoded genes; C26 100 μM (Fig 2D))	Log10 (Number of reads) invG (SPI-encoded genes; C26 100 μM (Fig 2D))	RNA-seq read count STM1329 (SPI-encoded genes; [1])	RNA-seq read count STM4315 (RtsA) (SPI-encoded genes; [1])	RNA-seq read count hilA (SPI-encoded genes; [1])	RNA-seq read count invG (SPI-encoded genes; [1])	uptake in the cytosol, fold difference to C26 (S. Typhimurium; cytosol)	overall uptake, fold higher than C26 (S. Typhimurium; whole cell)
CN(CC(=O)NCc1ccc2c(c1)OCO2)Cc1ccc(Br)s1 [C26, N-(benzo[d][1,3]dioxol-5-ylmethyl)-2-{[(5-bromothiophen-2-yl)methyl](methyl)amino}acetamide]	-0.4771	1.666	1.914	2.286	2.322	0 (2×) and 1	51 and 31 and 57	92 and 67 and 87	178 and 158 and 294	–	–
CN(CC(=O)NCc1ccc2c(c1)OC(F)(F)O2)Cc1ccc(Br)s1 [SW-C182, 2-{[(5-Bromothiophen-2-yl)methyl](methyl)amino}-N-[(2,2-difluorobenzo[d][1,3]dioxol-5-yl)methyl]acetamide]	–	–	–	–	–	–	–	–	–	5.3 fold	10 fold

Where “and” joins values, the source holds several entries; their conditions need not be identical. Equal values may be shown once.
